{
  "sequences": {"note": "The chains behind the UniProt entries cited, without tags or fusion partners.", "UniProt P10980, whole entry, looked up": "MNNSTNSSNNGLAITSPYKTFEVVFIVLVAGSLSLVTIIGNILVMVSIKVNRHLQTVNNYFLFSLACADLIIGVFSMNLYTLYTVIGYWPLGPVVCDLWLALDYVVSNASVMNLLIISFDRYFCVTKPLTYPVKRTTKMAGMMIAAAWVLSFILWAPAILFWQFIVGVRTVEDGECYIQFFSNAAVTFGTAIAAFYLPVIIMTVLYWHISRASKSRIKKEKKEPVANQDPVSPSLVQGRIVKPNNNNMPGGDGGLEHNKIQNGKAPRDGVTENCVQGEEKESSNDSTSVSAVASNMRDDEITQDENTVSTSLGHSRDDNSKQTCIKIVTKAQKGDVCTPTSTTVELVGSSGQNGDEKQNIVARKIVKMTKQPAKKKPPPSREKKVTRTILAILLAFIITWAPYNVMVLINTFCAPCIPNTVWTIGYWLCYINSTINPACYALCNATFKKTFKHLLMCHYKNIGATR", "UniProt P08483, whole entry, looked up": "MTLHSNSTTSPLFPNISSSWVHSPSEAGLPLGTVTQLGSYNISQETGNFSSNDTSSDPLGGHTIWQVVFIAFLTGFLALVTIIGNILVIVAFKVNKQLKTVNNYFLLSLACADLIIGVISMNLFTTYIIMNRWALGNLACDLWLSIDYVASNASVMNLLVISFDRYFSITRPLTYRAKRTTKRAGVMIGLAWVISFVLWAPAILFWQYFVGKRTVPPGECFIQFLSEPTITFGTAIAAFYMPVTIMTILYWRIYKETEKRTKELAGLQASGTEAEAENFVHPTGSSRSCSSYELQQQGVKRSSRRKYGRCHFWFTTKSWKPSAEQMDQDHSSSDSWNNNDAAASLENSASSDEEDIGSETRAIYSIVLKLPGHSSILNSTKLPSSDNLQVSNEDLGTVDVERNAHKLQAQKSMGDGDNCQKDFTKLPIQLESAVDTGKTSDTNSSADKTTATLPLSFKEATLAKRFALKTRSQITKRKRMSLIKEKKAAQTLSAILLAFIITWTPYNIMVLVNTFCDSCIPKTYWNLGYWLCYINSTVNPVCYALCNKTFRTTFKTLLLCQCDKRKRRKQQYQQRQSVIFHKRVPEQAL"},
  "source": "patent US7592359B2",
  "about": "“Substituted azabicyclo hexane derivatives as muscarinic receptor antagonists” (Ranbaxy Laboratories Limited, priority 2003, dated 2009)",
  "key": {"M2 muscarinic receptor": {"target": "M2 muscarinic receptor (Rattus norvegicus, UniProt P10980)", "assay": "Radioligand binding assay, [3H]-N-methylscopolamine, rat heart membranes", "conditions": "[3H]-NMS binding"}, "M3 muscarinic receptor": {"target": "M3 muscarinic receptor (Rattus norvegicus, UniProt P08483)", "assay": "Radioligand binding assay, [3H]-N-methylscopolamine, rat submandibular gland membranes", "conditions": "[3H]-NMS binding"}},
  "data": [
    {"molecule": "O=C(NC12CC1CN(Cc1ccccc1)C2)C(O)(c1ccccc1)c1ccccc1", "note": "(centres unmarked)", "values": [
      {"measurement": "Receptor Binding Assay pKi M2", "setting": "M2 muscarinic receptor", "value": 6.75},
      {"measurement": "Receptor Binding Assay pKi M3", "setting": "M3 muscarinic receptor", "value": 6.96}
    ]}
  ]
}
